# This is a selection: effects in other tests are not listed, and their absence says nothing.
# System: E. coli O157:H7 (5-strain cocktail)
# Test: Minimum bactericidal concentration in broth
# Type: cell-based, Escherichia coli O157:H7
substance,measurement,setting,value
ρ-hydroxybenzyl cyanide,Growth inhibition (p < 0.05),"E. coli O157:H7, pH 5.5, 25° C., 18 hours",18.78 mM
same,inhibitory activity against E. coli O157:H7,summary in words of Table 1,very weak

# Reference: US20110045139A1, “FERMENTED SAUSAGE AND METHODS OF MAKING SAME” (priority 2009, published 2011)
